A mixed list of measured activities; the numbers were collected in NIAID ChemDB.

All rows: growth or infection tests; species: Respiratory syncytial virus; read by: cytopathic effect; read-out: EC50

Blank or dashed fields: not listed here.

structure	strain or isolate	cell line	result
CCOC(=O)CN1CCC(Nc2nc3cc(C)cc(C)c3n2Cc2nc(C)ccc2O)CC1		HeLa	1.585 µM
NC(=O)CCN(CCC(N)=O)S(=O)(=O)c1cccc(Nc2nc(Nc3cccc(S(=O)(=O)N(CCC(N)=O)CCC(N)=O)c3)nc(Nc3ccc(-c4ccc(Nc5nc(Nc6cccc(S(=O)(=O)N(CCC(N)=O)CCC(N)=O)c6)nc(Nc6cccc(S(=O)(=O)N(CCC(N)=O)CCC(N)=O)c6)n5)cc4S(=O)(=O)O)c(S(=O)(=O)O)c3)n2)c1	18537/TYPE B	HEP-2	0.25 µg/mL
Cc1ccc(O)c(Cn2c(NCCCC(N)=O)nc3ccccc32)n1		HeLa	50.1 µM
CN(C)c1ccc2c(c1)CSSC2	LONG	HeLa	37.9 µM
Cc1cc(C)c2nc(NC3CCN(CCS(N)(=O)=O)CC3)n(Cc3nc(C)ccc3O)c2c1		HeLa	0.003 µM
Fc1cccc2c1CSSC2	LONG	HeLa	>284 µM
Cc1cc(C)c2nc(NCCc3ccccc3)n(Cc3nc(C)ccc3O)c2c1		HeLa	100 µM
c1ccc2c(c1)CSSC2	LONG	HeLa	4.5 µM
Cc1cc(C)c2nc(NC3CCN(CCO)CC3)n(Cc3nc(C)ccc3O)c2c1		HeLa	0.003 µM
COC(=O)c1ccc2c(c1)CSSC2	LONG	HeLa	31.8 µM
Cc1cc(C)c2nc(NCc3ccccn3)n(Cc3nc(C)ccc3O)c2c1		HeLa	1.585 µM
CC(=O)c1ccc2c(c1)CSSC2	LONG	HeLa	>163.9 µM
Cc1ccc(O)c(Cn2c(NCC3COC(C)(C)O3)nc3ccccc32)n1		HeLa	3.981 µM
Cc1ccc(O)c(Cn2c(NC3CCN(CCN4CC=CCC4)CC3)nc3c(C)cccc32)n1		HeLa	0.016 µM
Cc1ccc(O)c(Cn2c(NCCCO)nc3ccccc32)n1		HeLa	10 µM
Cc1ccc(O)c(Cn2c(NC3CCN(CC(=O)O)CC3)nc3c(C)cccc32)n1		HeLa	6.31 µM

The last 2 rows once more:

structure,strain or isolate,cell line,result
Cc1ccc(O)c(Cn2c(NCCCO)nc3ccccc32)n1,,HeLa,10 µM
Cc1ccc(O)c(Cn2c(NC3CCN(CC(=O)O)CC3)nc3c(C)cccc32)n1,,HeLa,6.31 µM

ECn: concentration that inhibits the pathogen or its effect by n%. Rows are shuffled and stem from different studies.